From patent publication US20260273042A1

Molecular target: BG505 SOSIP T332N gp140 (soluble trimer) (HIV (strain BG505))
Test: SPR (ligand and analyte not given)

PGT128 (antibody)
Kd: 17 nM
